A mixed list of measured activities; the numbers were collected in NIAID ChemDB.

All rows: enzyme or target tests; agent: HIV-1; target: Reverse transcriptase; endpoint: IC50

Neighbouring rows are from separate reports. ICn: concentration for n% inhibition. a–b is a range or a potency band. An empty or dashed field is not shown.

smiles	strain	mutations	method	value
Oc1cc2c(cc1O)CN(c1nn3c(C4CC4)nnc3c3ccccc13)CC2	IIIB	-	RT activity / fluorescence	1.85 µM
CCN1c2ncc(CCOc3cccc(-c4ccc(C(=O)O)cc4)c3)cc2C(=O)N(C)c2cccnc21	IIIB	-	nucleotide incorporation / radiometric	>0.1 µM
N#Cc1cccc2c(-n3c(SCC(=O)Nc4ccc(S(N)(=O)=O)cc4Cl)nnc3C(F)F)cccc12	-	RT-Y188L	nucleotide incorporation / radiometric	>0.1 µM
Cc1cc(C(F)(F)F)cc(-n2nnnc2SCC(=O)Nc2ccc(C#CC(C)(C)C(=O)O)cc2Cl)c1Cl	-	RT-K103 Y181C	PicoGreen / fluorescence	<1 µM
CCN1c2ncc(CCOc3ccc(S(=O)(=O)NC(C)=O)c4ccccc34)cc2C(=O)N(C)c2cccnc21	WT	-	nucleotide incorporation / radiometric	<0.1 µM
CCCc1ccc(-n2c(Br)nnc2SCC(=O)Nc2ccc(S(N)(=O)=O)cc2C)c2ccccc12	-	RT-Y188L	nucleotide incorporation / radiometric	>0.1 µM
COc1ccc2c(c1)CN(c1nn3c(C)nnc3c3ccccc13)CC2	IIIB	-	RT activity / fluorescence	3.31 µM
CC(=O)NC(C)(C)C#Cc1ccc(NC(=O)CSc2nnnn2-c2cc(C(F)(F)F)ccc2Cl)c(Cl)c1	-	RT-K103 Y181C	PicoGreen / fluorescence	<1 µM
Cc1cc(S(N)(=O)=O)ccc1NC(=O)CSc1nnc(Br)n1-c1c(Cl)cc(C2CCC2)c2ccccc12	-	RT-Y188L	nucleotide incorporation / radiometric	0.05–0.1 µM
COc1nnc2c3ccccc3c(N3CCc4ccc(N)cc4C3)nn12	IIIB	-	RT activity / fluorescence	2.71 µM
C=C1c2cc(CCOc3ccc(NS(C)(=O)=O)c4ccccc34)cnc2N(CC)c2ncccc2N1C	-	RT-K103N Y181C	nucleotide incorporation / radiometric	0.1–1 µM
Cc1cc(C)c(-n2c(SCC(=O)Nc3ccc(S(N)(=O)=O)cc3Cl)nnc2C(F)(F)F)c2c1CCCC2	-	RT-Y188L	nucleotide incorporation / radiometric	>0.1 µM
c1csc(-c2nnc3c4ccccc4c(N4CCc5ccccc5C4)nn23)c1	98US_MSC5016	-	RT activity / fluorescence	>100 µM
Cc1ccc(-n2nnnc2SCC(=O)Nc2ccc(-c3cccc(C(=O)O)c3)cc2Cl)c(Cl)c1	-	RT-K103 Y181C	PicoGreen / fluorescence	<1 µM
CCN1c2ncc(CCOc3ccc(/C=C(\C)C(=O)O)c4ccccc34)cc2C(=O)N(C)c2ccc(C)nc21	-	RT-Y188L	nucleotide incorporation / radiometric	>1 µM
NS(=O)(=O)c1ccc(NC(=O)CSc2nnc(C(F)F)n2-c2ccc(C3CC3)c3ccccc23)c(Cl)c1	-	-	nucleotide incorporation / radiometric	<0.05 µM
CC(C)(C#Cc1ccc(NC(=O)CSc2nnnn2-c2ccc(C(C)(C)C)cc2Cl)c(Cl)c1)OCC(=O)Nc1cccc(C(=O)O)c1	-	RT-K103 Y181C	PicoGreen / fluorescence	<1 µM
CCc1ccc(-n2c(Br)nnc2SCC(=O)Nc2ccc(C(=O)O)cc2Br)c2ccccc12	-	RT-Y181C	nucleotide incorporation / radiometric	<0.05 µM
CC(C)(C#Cc1ccc(NC(=O)CSc2nnnn2-c2ccc(C3CC3)cc2Cl)c(Cl)c1F)OCCOc1ccncc1	-	RT-K103 Y181C	PicoGreen / fluorescence	<1 µM
NS(=O)(=O)c1ccc(NC(=O)CSc2nnc(C(F)F)n2-c2ccc(C3CCC3)c3ccccc23)c(Cl)c1	-	-	nucleotide incorporation / radiometric	<0.05 µM
O=C(CSc1nnnn1-c1ccc(C2CC2)cc1Cl)Nc1ccc(-c2ccc(OCCN3CCCC3)cc2)c(F)c1Cl	WT	-	PicoGreen / fluorescence	<1 µM
CCN1c2ncc(CCOc3ccc(-c4cc(C)cnc4N)cc3C)cc2C(=O)N(C)c2cccnc21	IIIB	-	nucleotide incorporation / radiometric	<0.05 µM
CC(C)(C#Cc1ccc(NC(=O)CSc2nnnn2-c2ccc(C3CC3)cc2Cl)c(Cl)c1)NCC1CC1	WT	-	PicoGreen / fluorescence	<1 µM
CCc1ccc(-n2c(Br)nnc2SCC(=O)Nc2ccc(S(=O)(=O)O)cc2Br)c2ccccc12	-	RT-Y188L	nucleotide incorporation / radiometric	0.05–0.1 µM
CC(C)(C)c1ccc(-n2nnnc2SCC(=O)Nc2ccc(C(=O)NC3CC3)cc2Cl)c(Cl)c1	WT	-	PicoGreen / fluorescence	<1 µM
CCc1ccc(-n2c(Br)nnc2SCC(=O)Nc2ccc(C(=O)NCC3CCCCC3)cc2Cl)c2ccccc12	-	RT-Y181C	nucleotide incorporation / radiometric	<0.05 µM
CCN1c2ncc(CCOc3ccc(-c4ncccn4)cc3)cc2C(=O)N(C)c2cccnc21	IIIB	RT-K103N Y181C	nucleotide incorporation / radiometric	>0.1 µM
O=C(CSc1nnc(Br)n1-c1ccc(C2CC2)cc1Cl)Nc1ccc(C(=O)O)cc1Cl	-	RT-Y181C	nucleotide incorporation / radiometric	<0.05 µM
CCN1c2ncc(CCOc3ccc(S(=O)(=O)NCC(=O)O)cc3C)cc2C(=O)N(C)c2cccnc21	IIIB	-	nucleotide incorporation / radiometric	<0.05 µM
CC(C)C(=O)Nc1ccc(NC(=O)CSc2nnnn2-c2ccc(C(C)(C)C)cc2Cl)c(Cl)c1	-	RT-K103 Y181C	PicoGreen / fluorescence	<1 µM
Cc1cc(S(N)(=O)=O)ccc1NC(=O)CSc1nnc(C(F)F)n1-c1cccc2c(C#N)cccc12	-	-	nucleotide incorporation / radiometric	>0.1 µM
CC(C)(C#Cc1ccc(NC(=O)CSc2nnnn2-c2cc(C(C)(C)C)cc(Br)c2Cl)c(Cl)c1)NC(=O)CN1CCC(C(=O)O)CC1	-	RT-K103 Y181C	PicoGreen / fluorescence	<1 µM
CCN1c2ncc(CCOc3ccc(CC(=O)O)c4c3CCCC4)cc2C(=O)N(C)c2ccc(Cl)nc21	WT	-	nucleotide incorporation / radiometric	<0.1 µM
CCc1ccc(-n2c(Br)nnc2SCC(=O)Nc2ccc(C(=O)NCC(O)CO)cc2Cl)c2ccccc12	-	RT-Y188L	nucleotide incorporation / radiometric	>0.1 µM
CC(C)(C)c1ccc(-n2nnnc2SCC(=O)Nc2ccc(-c3ccc(OCCN4CC[C@@H](O)C4)cc3)cc2Cl)c(Cl)c1	WT	-	PicoGreen / fluorescence	<1 µM
O=C(CSc1nnc(Br)n1-c1ccc(C2CC2)c2ccccc12)Nc1ccc(C(=O)O)cc1Cl	-	RT-Y188L	nucleotide incorporation / radiometric	0.05–0.1 µM
c1ccc2c(c1)CCN(c1nn3c(C4CC4)nnc3c3ccccc13)C2	IIIB	-	RT activity / fluorescence	0.22 µM
CN(C)c1ccc(Cl)c(-n2nnnc2SCC(=O)Nc2ccc(C#CC(C)(C)C(=O)O)cc2Cl)c1	WT	-	PicoGreen / fluorescence	<1 µM
CCOC(=O)CN(C)C(=O)c1ccc(NC(=O)CSc2nnc(Br)n2-c2ccc(C3CC3)c3ccccc23)c(Cl)c1	-	-	nucleotide incorporation / radiometric	0.05–0.1 µM
CC(C)(C#Cc1ccc(NC(=O)CSc2nnnn2-c2cccc(C3CC3)c2Cl)c(Cl)c1)C(=O)O	WT	-	PicoGreen / fluorescence	<1 µM
CCc1cc(NCc2nc3c(C)ccc(C)c3o2)c(=O)[nH]c1C	-	RT-K103N Y181C Y188C	nucleotide incorporation	>282 µM
CC(C)(C)c1ccc(-n2nnnc2SCC(=O)Nc2ccc(-c3ccc(OCCN4CC[C@H](O)C4)cc3)cc2Cl)c(Cl)c1	-	RT-K103 Y181C	PicoGreen / fluorescence	<1 µM
CCc1ccc(-n2c(CF)nnc2SCC(=O)Nc2ccc(S(=O)(=O)NC)cc2Cl)c2ccccc12	-	RT-Y188L	nucleotide incorporation / radiometric	>0.1 µM
CC(C)(C#Cc1ccc(NC(=O)CSc2nnnn2-c2cc(C(C)(C)C)ccc2Cl)c(Cl)c1)NC(=O)CN1CCC(C(=O)O)CC1	-	RT-K103 Y181C	PicoGreen / fluorescence	<1 µM
Cc1nnc2n1CCN(c1nn3c(C4CC4)nnc3c3ccccc13)C2	98US_MSC5016	-	RT activity / fluorescence	>100 µM

A second listing of 6 rows from above:

{"smiles": "Cc1cc(C(F)(F)F)cc(-n2nnnc2SCC(=O)Nc2ccc(C#CC(C)(C)C(=O)O)cc2Cl)c1Cl", "mutations": "RT-K103 Y181C", "method": "PicoGreen / fluorescence", "value": "<1 µM"}
{"smiles": "CCN1c2ncc(CCOc3ccc(/C=C(\\C)C(=O)O)c4ccccc34)cc2C(=O)N(C)c2ccc(C)nc21", "mutations": "RT-Y188L", "method": "nucleotide incorporation / radiometric", "value": ">1 µM"}
{"smiles": "CC(C)(C)c1ccc(-n2nnnc2SCC(=O)Nc2ccc(C(=O)NC3CC3)cc2Cl)c(Cl)c1", "strain": "WT", "method": "PicoGreen / fluorescence", "value": "<1 µM"}
{"smiles": "COc1ccc2c(c1)CN(c1nn3c(C)nnc3c3ccccc13)CC2", "strain": "IIIB", "method": "RT activity / fluorescence", "value": "3.31 µM"}
{"smiles": "CCc1ccc(-n2c(Br)nnc2SCC(=O)Nc2ccc(C(=O)NCC3CCCCC3)cc2Cl)c2ccccc12", "mutations": "RT-Y181C", "method": "nucleotide incorporation / radiometric", "value": "<0.05 µM"}
{"smiles": "CC(C)(C#Cc1ccc(NC(=O)CSc2nnnn2-c2cc(C(C)(C)C)ccc2Cl)c(Cl)c1)NC(=O)CN1CCC(C(=O)O)CC1", "mutations": "RT-K103 Y181C", "method": "PicoGreen / fluorescence", "value": "<1 µM"}